{"source": "PubChem BioAssay AID504761 (Drosophila RNAi Screening Center, 2011)", "aim": "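Insect host genes that dengue virus relies on to spread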 (primary screen)", "cell system": "D.Mel-2 cells from Drosophila", "reagent": "long dsRNA against Drosophila genes", "challenge": "infection with dengue virus type 2; dose and infection time not stated", "read-out": "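Cells stained for dengue envelope protein and imaged; percent of infected cells per well on duplicate plates, ranked by infection, with stained nuclei counted for cell number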", "reading the numbers": "infection score: higher = more virus-infected cells; cell count: higher = more cells in the well", "rule for the call": "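Low infection ranks in the two replicates (chance level up to 0.065) followed by a retest with a 1.5-fold or larger significant decrease, p below 0.05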", "calls": "active = confirmed: knock-down lowers infection; inactive = not picked or not confirmed", "note": "The deposit covers about 22,000 reagents; shown is an unselected part of those with a known target gene and a result. In the full data, 116 (0.52%) were called active. 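Calls depend on retest data that are not deposited; infection was ranked per plate without normalising between plates; the unit of the infection score is not given.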 Raw values vary from plate to plate and are shown uncorrected. Further read-outs or replicates are left out here. The record does not give: the amount of reagent, the time to read-out."}
{"target gene":"CG7992","dsRNA":"DRSC20070","infection score, replicate 1":2.82,"cell count, replicate 1":6055,"outcome":"inactive"}
{"target gene":"CG7988","dsRNA":"DRSC16358","infection score, replicate 1":4.42,"cell count, replicate 1":6545,"outcome":"inactive"}
{"target gene":"CG17028","dsRNA":"DRSC10239","infection score, replicate 1":2.76,"cell count, replicate 1":6314,"outcome":"inactive"}
{"target gene":"CG17028","dsRNA":"DRSC29850","infection score, replicate 1":12.5,"cell count, replicate 1":5859,"outcome":"inactive"}
{"target gene":"RhoL","dsRNA":"DRSC16824","infection score, replicate 1":20.7,"cell count, replicate 1":3939,"outcome":"inactive"}
{"target gene":"RhoL","dsRNA":"DRSC23664","infection score, replicate 1":5.27,"cell count, replicate 1":6492,"outcome":"inactive"}
{"target gene":"Sbds","dsRNA":"DRSC10992","infection score, replicate 1":7.36,"cell count, replicate 1":1563,"outcome":"inactive"}
{"target gene":"mIF3","dsRNA":"DRSC06290","infection score, replicate 1":17,"cell count, replicate 1":5445,"outcome":"inactive"}
{"target gene":"Sld5","dsRNA":"DRSC14892","infection score, replicate 1":5.37,"cell count, replicate 1":6553,"outcome":"inactive"}
{"target gene":"Gr36c","dsRNA":"DRSC02437","infection score, replicate 1":2.92,"cell count, replicate 1":6544,"outcome":"inactive"}
{"target gene":"Gr36c","dsRNA":"DRSC26305","infection score, replicate 1":8.1,"cell count, replicate 1":6114,"outcome":"inactive"}
{"target gene":"CG32986","dsRNA":"DRSC02509","infection score, replicate 1":5.25,"cell count, replicate 1":6727,"outcome":"inactive"}
{"target gene":"Ptip","dsRNA":"DRSC10660","infection score, replicate 1":3.99,"cell count, replicate 1":6018,"outcome":"inactive"}
{"target gene":"Ptip","dsRNA":"DRSC11048","infection score, replicate 1":1.56,"cell count, replicate 1":4491,"outcome":"inactive"}
{"target gene":"Ugt303B1","dsRNA":"DRSC15141","infection score, replicate 1":1.53,"cell count, replicate 1":6847,"outcome":"inactive"}
{"target gene":"CG14186","dsRNA":"DRSC10185","infection score, replicate 1":8.18,"cell count, replicate 1":6074,"outcome":"inactive"}
{"target gene":"CG14186","dsRNA":"DRSC28085","infection score, replicate 1":28.1,"cell count, replicate 1":5119,"outcome":"inactive"}
{"target gene":"CG12321","dsRNA":"DRSC14499","infection score, replicate 1":19.1,"cell count, replicate 1":5926,"outcome":"inactive"}
{"target gene":"CG12321","dsRNA":"DRSC28965","infection score, replicate 1":8.51,"cell count, replicate 1":2410,"outcome":"inactive"}
{"target gene":"CG42490 (retired record)","dsRNA":"DRSC01649","infection score, replicate 1":1.57,"cell count, replicate 1":6188,"outcome":"inactive"}
{"target gene":"CG42490 (retired record)","dsRNA":"DRSC28297","infection score, replicate 1":5.27,"cell count, replicate 1":4477,"outcome":"inactive"}
{"target gene":"Or65c","dsRNA":"DRSC21312","infection score, replicate 1":2.33,"cell count, replicate 1":6322,"outcome":"inactive"}
{"target gene":"U2af38","dsRNA":"DRSC00796","infection score, replicate 1":6.35,"cell count, replicate 1":4742,"outcome":"inactive"}
{"target gene":"U2af38","dsRNA":"DRSC28068","infection score, replicate 1":27.9,"cell count, replicate 1":4928,"outcome":"inactive"}
{"target gene":"eIF3m","dsRNA":"DRSC07142","infection score, replicate 1":5.35,"cell count, replicate 1":3572,"outcome":"inactive"}
{"target gene":"eIF3m","dsRNA":"DRSC26908","infection score, replicate 1":3.34,"cell count, replicate 1":4195,"outcome":"inactive"}
{"target gene":"CG13800 (retired record)","dsRNA":"DRSC08334","infection score, replicate 1":2.34,"cell count, replicate 1":6358,"outcome":"inactive"}
{"target gene":"CG13800 (retired record)","dsRNA":"DRSC28906","infection score, replicate 1":20,"cell count, replicate 1":4699,"outcome":"inactive"}

An excerpt from above, limited to “infection score, replicate 1”.
Gr36c [DRSC26305] = 8.1
CG32986 [DRSC02509] = 5.25
Ptip [DRSC10660] = 3.99
